Reference: patent publication US20230357367A1 (GENERATE BIOMEDICINES, published 2023)

B1: Reference Antibody (antibody, V domains shown)
VH: EVQLVESGAEVKKPGESLKISCKGSGYTFTRYWIGWVRQMPGKGLEWMGIIYPGDSDTRYSPSFQGHVTISADKSISTAYLQWNSLKASDTAMYYCARLPQYCSNGVCQRWFDPWGQGTLVTVSS
VL: EIVLTQSPSSVSASVGDRVTITCRASQGISSWLAWYQQKPGKAPKLLIYAASSLQSGVPSRFSGSGSGTDFTLTISSLQPEDFATYYCQQGNSFPYTFGQGTNLEIK
B2: Reference Antibody Fab (Fab, V domains shown)
VH: EVQLVESGAEVKKPGESLKISCKGSGYTFTRYWIGWVRQMPGKGLEWMGIIYPGDSDTRYSPSFQGHVTISADKSISTAYLQWNSLKASDTAMYYCARLPQYCSNGVCQRWFDPWGQGTLVTVSS
VL: EIVLTQSPSSVSASVGDRVTITCRASQGISSWLAWYQQKPGKAPKLLIYAASSLQSGVPSRFSGSGSGTDFTLTISSLQPEDFATYYCQQGNSFPYTFGQGTNLEIK

Assays:
[1] = target: SARS-CoV-2 BA.1 spike trimer (recombinant, ACRO) (SARS-CoV-2); assay: DELFIA, IgG titrated on coated spike trimer
[2] = target: SARS-CoV-2 BA.2.12.1 spike trimer (recombinant) (SARS-CoV-2); assay: DELFIA, IgG titrated on coated spike trimer
[3] = target: SARS-CoV-2 BA.4.6 spike trimer (recombinant) (SARS-CoV-2); assay: DELFIA, IgG titrated on coated spike trimer
[4] = target: SARS-CoV-2 BQ.1 spike trimer (recombinant) (SARS-CoV-2); assay: DELFIA, IgG titrated on coated spike trimer
[5] = target: T1, SARS-CoV-2 BQ.1.1 spike trimer (recombinant) (SARS-CoV-2); assay: DELFIA, IgG titrated on coated spike trimer
[6] = target: T2, SARS-CoV-2 XBB.1.5 spike trimer (recombinant) (SARS-CoV-2); assay: DELFIA, IgG titrated on coated spike trimer
[7] = target: T3, SARS-CoV-2 BA.2 (parent) spike trimer (recombinant, in-house production) (SARS-CoV-2); assay: DELFIA, IgG titrated on coated spike trimer
[8] = target: T4, SARS-CoV-2 BA.4 spike trimer (recombinant) (SARS-CoV-2); assay: SPR, Fab over anti-His-captured trimer, 25 C
[9] = target: T1, SARS-CoV-2 BQ.1.1 spike trimer …; assay: SPR, Fab over anti-His-captured trimer, 25 C
[10] = target: T2, SARS-CoV-2 XBB.1.5 spike trimer …; assay: SPR, Fab over anti-His-captured trimer, 25 C
[11] = target: T3, SARS-CoV-2 BA.2 (parent) spike trimer …; assay: SPR, Fab over anti-His-captured trimer, 25 C
[12] = target: T5, SARS-CoV-2 BA.5 spike trimer (recombinant) (SARS-CoV-2); assay: SPR, Fab over anti-His-captured trimer, 25 C
[13] = target: T4, SARS-CoV-2 BA.4 spike trimer …; assay: SPR, Fab over anti-His-captured trimer, 37 C
[14] = target: T1, SARS-CoV-2 BQ.1.1 spike trimer …; assay: SPR, Fab over anti-His-captured trimer, 37 C
[15] = target: T2, SARS-CoV-2 XBB.1.5 spike trimer …; assay: SPR, Fab over anti-His-captured trimer, 37 C
[16] = target: T3, SARS-CoV-2 BA.2 (parent) spike trimer …; assay: SPR, Fab over anti-His-captured trimer, 37 C
[17] = target: T5, SARS-CoV-2 BA.5 spike trimer …; assay: SPR, Fab over anti-His-captured trimer, 37 C

Row | Binder | EC50 [1] | EC50 [2] | EC50 [3] | EC50 [4] | EC50 [5] | EC50 [6] | EC50 [7] | Kd [8] | Kd [9] | Kd [10] | Kd [11] | Kd [12] | Kd [13] | Kd [14] | Kd [15] | Kd [16] | Kd [17]
1 | B1 | 0.068 µg/mL | 0.072 µg/mL | 0.072 µg/mL | 0.068 µg/mL | 0.066 µg/mL | 0.072 µg/mL | 0.062 µg/mL | – | – | – | – | – | – | – | – | – | –
2 | B2 | – | – | – | – | – | – | – | 19 nM | 22 nM | 18.8 nM | 85.8 nM | 15.6 nM | 37.4 nM | 43.7 nM | 39.8 nM | 146 nM | 45.9 nM
